In patent publication US20230138393A1, “LINKING AMINO ACID SEQUENCES, MANUFACTURING METHOD THEREOF, AND USE THEREOF” (priority 2020, published 2023):

Legend:
HEK293 cells = test: Cell cytotoxicity studies of cofactor analogs (CellTiter Glo); details: doses up to 2 mM, 12 h
HeLa cells = test: as above; details: doses up to 2 mM, 12 h

With `CCOC(=O)CF` the cell cytotoxicity (HEK293 cells) was “minimal toxicity” and the cell cytotoxicity (HeLa cells) was “minimal toxicity”.
